Measurements taken from publication PMC9587031, “Antibiotic polymyxin arranges lipopolysaccharide into crystalline structures to solidify the bacterial membrane” (Nature Communications, 2022).

Assays:
[1] = test system: E. coli K-12 MG1655 MCR-1 bacteria; assay: In-cell solid-state 31P-NMR T1ρ relaxation; assay type: cell-based, Escherichia coli; details: 31P ssNMR, intact cells, n = 1; untreated 3.7, 4, 4.6
[2] = test system: E. coli K-12 MG1655 WT bacteria; assay: In-cell solid-state 31P-NMR T1ρ relaxation; assay type: cell-based, Escherichia coli; details: 31P ssNMR, intact cells

## Polymyxin E
[1]
  T1ρ, gel phase lipids, MCR1 + colistin: 2.7 ms
[2]; 0.5 μg/ml colistin 2 h room temperature, 280 K, first listed value, untreated 2.6 ms, listed as Colistin
  T1ρ, gel phase lipid, WT + colistin: 4 ms
[2]; 0.5 μg/ml colistin 2 h room temperature, 280 K, first listed value, untreated 2.6 ms, listed as polymyxin E
  T1ρ, gel phase lipid, WT + colistin: 4.0 ms
[2]; first listed value of source data, untreated 10.2
  T1ρ, isotropic phosphates, WT + colistin: 26.6 ms
[2]; second listed value of source data, untreated 2
  T1ρ, gel phase lipid, WT + colistin: 3 ms
